# PubChem BioAssay AID1259414 – Drosophila RNAi Screening Center, 2018
# Screen: 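Fly genes that alter Wolbachia amount inside host cells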 (primary screen)
# Cells: Drosophila JW18 cells infected with Wolbachia
# Knock-down reagent: long dsRNA against Drosophila genes, 0.25 µg dsRNA per well of a 384-well plate
# Duration: 5 days
# Conditions: cells persistently infected with Wolbachia before knock-down; no added drug
# Measured: 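Automated imaging of bacterial rRNA staining divided by host cell count, reported as plate-normalised robust z-score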
# Scale: Wolbachia per cell robust z: higher = more Wolbachia per host cell than the plate typical
# Active means: 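Hit when robust z is 1.5 or more, or -1.5 or less, in at least two of three replicates; excludes dsRNAs with several or no targets, genes not expressed in JW18 and well A1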
# The screen tested about 24,000 reagents; below is an unselected part of those with a known target gene and a result. In the full data, about 1,210 (5%) got an active call. 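Inactive calls also include excluded dsRNAs with several or no targets, genes unexpressed in JW18, and well A1, regardless of score.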 A plus sign joins genes that one reagent is predicted to hit.
target,dsRNA,"Wolbachia per cell robust z, rep 1","Wolbachia per cell robust z, rep 2","Wolbachia per cell robust z, rep 3",activity call
CG32181 (GeneID 317897),DRSC22635,0.429,0.853,1.33,inactive
CG32181 (GeneID 317897),DRSC26268,0.0642,-0.0497,-0.994,inactive
TH1 (GeneID 32607),DRSC20289,0.792,0.816,0.866,inactive
CG13457 (GeneID 39649),DRSC10004,-0.794,-0.81,-1.21,inactive
CG13457 (GeneID 39649),DRSC29775,-4.18,-2.11,0.194,inactive
CG31301 (GeneID 41865),DRSC22164,-0.276,-0.512,-1.61,inactive
CG7381 (GeneID 41589),DRSC16238,-0.98,-0.371,-0.391,inactive
CG7381 (GeneID 41589),DRSC29012,0.244,1.2,-0.255,inactive
CG14502 (GeneID 37092),DRSC06473,1.08,-1.23,-0.0762,inactive
CG7747 (GeneID 36820),DRSC07038,0.728,-7.06,-0.565,inactive
CG7747 (GeneID 36820),DRSC26745,0.0644,-0.419,0.442,inactive
Dus3 (GeneID 35264),DRSC02059,0.0116,-0.499,-3.74,inactive
Dus3 (GeneID 35264),DRSC30102,1.1,1.54,0.686,inactive
CG4712 (GeneID 36469),DRSC06882,-0.267,-4.15,0.486,inactive
CG33510 (GeneID 3346224),DRSC37782,-0.289,-0.214,-0.467,inactive
l(2)37Bb (GeneID 49427),DRSC02088,-0.133,0.364,-3.24,active
Pex13 (GeneID 36462),DRSC06877,-5.41,-0.0854,-0.0431,inactive
Rga (GeneID 40683),DRSC29179,-5.45,1.22,1.17,inactive
gol (GeneID 38006),DRSC04689,-1.45,-0.236,-1.15,inactive
SKIP (GeneID 42601),DRSC14713,-0.129,-4.28,0.181,inactive
SKIP (GeneID 42601),DRSC14714,-1.06,-1.3,0.424,inactive
SKIP (GeneID 42601),DRSC15864,0.78,0.568,0.571,inactive
SKIP (GeneID 42601),DRSC16195,0.632,0.553,0.0442,inactive
SKIP (GeneID 42601),DRSC16196,1.37,0.743,-1.3,inactive
Acp32CD (GeneID 34531),DRSC01858,0.512,0.215,0.945,inactive
Acp32CD (GeneID 34531),DRSC23817,-0.199,0.882,-0.539,inactive
Acp32CD (GeneID 34531),DRSC38978,1.2,1.13,0.234,inactive
CG32579 (GeneID 318096),DRSC19872,1.55,1.13,0.493,inactive
Cht2 (GeneID 38223),DRSC08650,-0.2,1.06,-1.73,inactive
Cht2 (GeneID 38223),DRSC24801,-1.29,-0.297,-0.55,inactive
CG13359 (GeneID 31028),DRSC18539,-1.43,-1.37,1.4,inactive
CG13359 (GeneID 31028),DRSC26791,-0.459,0.059,-3.17,inactive

In a second layout: entries from further up
{"target": "CG4712 (GeneID 36469)", "dsRNA": "DRSC06882", "Wolbachia per cell robust z, rep 1": -0.267, "Wolbachia per cell robust z, rep 2": -4.15, "Wolbachia per cell robust z, rep 3": 0.486, "activity call": "inactive"}
{"target": "CG33510 (GeneID 3346224)", "dsRNA": "DRSC37782", "Wolbachia per cell robust z, rep 1": -0.289, "Wolbachia per cell robust z, rep 2": -0.214, "Wolbachia per cell robust z, rep 3": -0.467, "activity call": "inactive"}
{"target": "l(2)37Bb (GeneID 49427)", "dsRNA": "DRSC02088", "Wolbachia per cell robust z, rep 1": -0.133, "Wolbachia per cell robust z, rep 2": 0.364, "Wolbachia per cell robust z, rep 3": -3.24, "activity call": "active"}
{"target": "Pex13 (GeneID 36462)", "dsRNA": "DRSC06877", "Wolbachia per cell robust z, rep 1": -5.41, "Wolbachia per cell robust z, rep 2": -0.0854, "Wolbachia per cell robust z, rep 3": -0.0431, "activity call": "inactive"}
{"target": "Rga (GeneID 40683)", "dsRNA": "DRSC29179", "Wolbachia per cell robust z, rep 1": -5.45, "Wolbachia per cell robust z, rep 2": 1.22, "Wolbachia per cell robust z, rep 3": 1.17, "activity call": "inactive"}
{"target": "gol (GeneID 38006)", "dsRNA": "DRSC04689", "Wolbachia per cell robust z, rep 1": -1.45, "Wolbachia per cell robust z, rep 2": -0.236, "Wolbachia per cell robust z, rep 3": -1.15, "activity call": "inactive"}
{"target": "SKIP (GeneID 42601)", "dsRNA": "DRSC14713", "Wolbachia per cell robust z, rep 1": -0.129, "Wolbachia per cell robust z, rep 2": -4.28, "Wolbachia per cell robust z, rep 3": 0.181, "activity call": "inactive"}
{"target": "SKIP (GeneID 42601)", "dsRNA": "DRSC14714", "Wolbachia per cell robust z, rep 1": -1.06, "Wolbachia per cell robust z, rep 2": -1.3, "Wolbachia per cell robust z, rep 3": 0.424, "activity call": "inactive"}
{"target": "SKIP (GeneID 42601)", "dsRNA": "DRSC15864", "Wolbachia per cell robust z, rep 1": 0.78, "Wolbachia per cell robust z, rep 2": 0.568, "Wolbachia per cell robust z, rep 3": 0.571, "activity call": "inactive"}
{"target": "SKIP (GeneID 42601)", "dsRNA": "DRSC16195", "Wolbachia per cell robust z, rep 1": 0.632, "Wolbachia per cell robust z, rep 2": 0.553, "Wolbachia per cell robust z, rep 3": 0.0442, "activity call": "inactive"}
{"target": "SKIP (GeneID 42601)", "dsRNA": "DRSC16196", "Wolbachia per cell robust z, rep 1": 1.37, "Wolbachia per cell robust z, rep 2": 0.743, "Wolbachia per cell robust z, rep 3": -1.3, "activity call": "inactive"}
{"target": "Acp32CD (GeneID 34531)", "dsRNA": "DRSC01858", "Wolbachia per cell robust z, rep 1": 0.512, "Wolbachia per cell robust z, rep 2": 0.215, "Wolbachia per cell robust z, rep 3": 0.945, "activity call": "inactive"}
{"target": "Acp32CD (GeneID 34531)", "dsRNA": "DRSC23817", "Wolbachia per cell robust z, rep 1": -0.199, "Wolbachia per cell robust z, rep 2": 0.882, "Wolbachia per cell robust z, rep 3": -0.539, "activity call": "inactive"}
{"target": "Acp32CD (GeneID 34531)", "dsRNA": "DRSC38978", "Wolbachia per cell robust z, rep 1": 1.2, "Wolbachia per cell robust z, rep 2": 1.13, "Wolbachia per cell robust z, rep 3": 0.234, "activity call": "inactive"}
{"target": "CG32579 (GeneID 318096)", "dsRNA": "DRSC19872", "Wolbachia per cell robust z, rep 1": 1.55, "Wolbachia per cell robust z, rep 2": 1.13, "Wolbachia per cell robust z, rep 3": 0.493, "activity call": "inactive"}

The listing continues:
target,dsRNA,"Wolbachia per cell robust z, rep 1","Wolbachia per cell robust z, rep 2","Wolbachia per cell robust z, rep 3",activity call
CG4645 (GeneID 32244),DRSC19907,-3.34,0.188,0.115,inactive
CG4645 (GeneID 32244),DRSC24802,-1.91,-0.161,-0.243,inactive
CG14810 (GeneID 31131),DRSC17693,1.82,1.24,0.839,inactive
CG14810 (GeneID 31131),DRSC17961,0.516,-1.84,-0.0359,inactive
CG14810 (GeneID 31131),DRSC25199,-2.18,-2.87,-0.176,inactive
whd (GeneID 36109),DRSC07351,0.00387,0.616,0.0218,inactive
CG9547 (GeneID 33911),DRSC03260,-5.91,-0.425,-1.31,inactive
CG9547 (GeneID 33911),DRSC27269,-0.039,0.505,0.831,inactive
mms4 (GeneID 36136),DRSC06249,0.409,-0.671,-2.87,inactive
betaNACtes6 + betaNACtes3,DRSC27147,-0.0225,0.109,1.42,inactive
qtc (GeneID 33739),DRSC02364,-0.256,0.386,0.0329,inactive
qtc (GeneID 33739),DRSC02365,-0.392,-2.81,-0.263,inactive
qtc (GeneID 33739),DRSC27377,0.406,0.225,0.64,inactive
sws (GeneID 31716),DRSC18843,-0.139,0.775,0.196,inactive
Osi22 (GeneID 41632),DRSC16442,-0.305,1.13,1.17,inactive
Osi22 (GeneID 41632),DRSC27176,0.794,1.27,1.43,inactive
LManV (GeneID 34205),DRSC03223,0.516,-0.655,0.345,inactive
LManV (GeneID 34205),DRSC24176,0.632,1.41,1.71,inactive
Pzl (GeneID 26067051),DRSC37758,-0.194,1.11,-0.846,inactive
Pzl (GeneID 26067051),DRSC37762,-0.85,-0.936,-1.34,inactive
Pzl (GeneID 26067051),DRSC37861,-0.145,-1.52,-0.885,inactive
Pzl (GeneID 26067051),DRSC38724,0.966,-2.03,0.133,inactive
Pzl (GeneID 26067051),DRSC41409,-2.9,0.00901,-2.56,inactive
CG31093 (GeneID 43116),DRSC15689,0.866,-0.133,-3.64,inactive
CG8401 (GeneID 36770),DRSC07165,-0.175,0.124,-0.129,inactive
CG12942 (GeneID 36158),DRSC06253,-0.0106,-1.43,-0.434,inactive
CG12942 (GeneID 36158),DRSC25987,-1.89,0.673,-0.542,inactive
CG43894 (GeneID 39464),DRSC10123,0.307,0.749,0.202,inactive
CG43894 (GeneID 39464),DRSC25029,1.41,1.31,0.559,inactive
CG43894 (GeneID 39464),DRSC38843,-0.51,-1.48,-2.14,inactive
CalpC (GeneID 32597),DRSC19873,0.52,-2.41,-1.07,inactive
CG3164 (GeneID 33171),DRSC00572,0.97,-0.35,-0.331,inactive
CG14252 (GeneID 43238),DRSC14747,0.573,0.792,1.62,inactive
Ns4 (GeneID 35338),DRSC03199,-2.52,0.234,-1.14,inactive
Ns4 (GeneID 35338),DRSC27230,-0.00428,-0.947,-1.59,inactive
NimB2 (GeneID 260645),DRSC22645,-2.5,0.649,-0.982,inactive
Nf-YC (GeneID 31622),DRSC23106,0.238,0.168,-0.343,inactive
Alg10 (GeneID 326193),DRSC10892,0.0757,-1.45,0.302,inactive
CG9344 (GeneID 37372),DRSC04541,-0.494,0.246,0.468,inactive
mbt (GeneID 32631),DRSC23020,-0.186,-0.0237,-0.588,inactive
mbt (GeneID 32631),DRSC25818,-2.26,-0.991,-1.15,inactive
CG14711 + Zaf1,DRSC14934,-5.63,-0.287,-5.79,inactive
CG14711 + Zaf1,DRSC23982,-0.605,0.0326,-0.536,inactive
CG14450 (GeneID 40490),DRSC11707,0.223,0.646,1.73,inactive
CG14450 (GeneID 40490),DRSC29442,-0.754,-2.65,-1.63,active
Jasper (GeneID 43576),DRSC16352,0.793,0.255,0.242,inactive
Atg6 (GeneID 42850),DRSC15798,0.542,0.201,-1.98,inactive
Atg6 (GeneID 42850),DRSC24442,-0.739,1.51,2.52,active
CG13857 (GeneID 42627),DRSC14707,0.443,1.55,-0.576,inactive
CG12171 (GeneID 40690),DRSC12200,0.168,-0.685,-0.283,inactive
CG12171 (GeneID 40690),DRSC25540,-0.788,-2.24,-1.62,active
mRpS22 (GeneID 43345),DRSC14488,-0.317,-0.638,-0.406,inactive
mRpS22 (GeneID 43345),DRSC28355,0.424,-0.662,-0.679,inactive
Mlc1 (GeneID 43323),DRSC16740,0.81,-0.0106,1.03,inactive
Mlc1 (GeneID 43323),DRSC27232,-0.24,-0.156,0.00262,inactive
